Reference: article PMC10508830 (Antiviral research, 2023)

Biological target: NA of clade 2.3.4.4b A(H5N1) viruses lacking the flagged NA substitutions (n = 15) (Influenza A virus, UniProt Q9Q0U7)
Format: biochemical

oseltamivir carboxylate
relative potency at inhibiting NA activity: least potent
IC50 (read-out: Median IC50 A(H5N1)): 2.66 nM
